This is an account of results in article PMC12090765, “Structure and function of an unusual R452-dependent monoclonal antibody against SARS-CoV-2” (Journal of Virology, 2025).

The term Kd denotes the equilibrium constant for the complex coming apart. Read a high Kd as a looser complex.

The experiment addresses T1, SARS-CoV-2 Delta-S1 protein (SARS-CoV-2 Delta (B.1.617.2), strain).
T1 construct: also called S1 protein of the Delta variant; source: bought: Sino Biological
Nature of the experiment: SPR. The following applies: both partners purified.

B1: ConD-852 (IgG form) (antibody, V domains shown)
VH: QVQLVESGGGVVQPGRSLRLSCAASGFTFSSYGMHWVRQAPGKGLEWVALIWFDGSNKYYADSVKGRFTISRDNSKNTLYLQMNSLRAEDTAVYYCARDGLDLEWLFGLFDYWGQGTLVTVSS
VL: not shown
Take B1: the Kd amounted to 0.35 nM.
